Anti-infective test results gathered from many reports (values: NIAID ChemDB through PubChem).

All rows: tests in culture; organism: Mycobacterium tuberculosis

ECn is the concentration giving n% inhibition of infection, replication or growth.

structure,strain or isolate,changes,method,endpoint,tested at,result
C=CC(C)(O)CCc1ccccn1,H37Rv,,,inhibition,6.25 µg/mL,-5%
N/C(=N\N=C/c1cn(Cc2ccccc2Br)c2ccccc12)c1ccc2ccccc2n1,H37RV (INH RMP OFL-S),,,MIC,,>128 µg/mL
CCN1C(=O)CS/C1=N\NC(=O)c1ccc(NC(=O)c2ccc(OC)cc2)cc1,H37Rv,,,inhibition,6.25 µg/mL,0%
O=C(c1ccccc1)c1cn(-c2cccc3ccccc23)nn1,H37Rv,,,inhibition,12.5 µg/mL,22%
Cc1[nH]n(-c2ccc([N+](=O)[O-])cc2)c(=O)c1N=Nc1ccc(-c2n[nH]c(=S)n2C)cc1,H37Rv,,,MIC,,>6.25 µg/mL
CC1=C(C)C2C=CC(N(C)C)=CC2NC1=O,H37Rv,,BACTEC,inhibition,12.5 µg/mL,60%
N/C(=N\N=C/c1cn(Cc2ccc(Cl)cc2)c2ccccc12)c1ccccn1,H37RV (INH RMP OFL-S),,,MIC,,32 µg/mL
CCOc1cc(/C=N/NC(=O)c2ccc(NC(=O)c3ccc(OC)cc3)cc2)ccc1O,H37Rv,,,MIC,,>6.25 µg/mL
Cc1ccccc1CN1C2=NCCN2C(=O)C2=C1CCN(S(=O)(=O)c1ccc(Cl)c(S(N)(=O)=O)c1)C2,H37Rv,,,MIC bound,,>6.25 µg/mL
COc1ccc(N2CCC3(CCN(Cc4ccc([N+](=O)[O-])o4)CC3)CC2)cc1,H37Rv,,resazurin,MIC90,,0.205 µg/mL
N/C(=N\N=C\c1ccccn1)c1ccccn1,,,,MIC,,>16 µg/mL
CC(C)(C)c1cccc(N2CC3CN(Cc4ccc([N+](=O)[O-])o4)CC3C2)c1,Clinical Isolate 16995,INH RFP resistant,resazurin,MIC90,,0.07 µg/mL
Clc1ccc(CSc2ncn[nH]2)cc1Cl,My 331/88,,,MIC,,1000 µM
CC[C@@H](CO)NCCN[C@@H](CC)CO,H37Rv,,agar,MIC,,3.13 µg/mL
S=C1N(C2CCCCC2)CCN1C1CCCCC1,H37Rv,,BACTEC,inhibition,12.5 µg/mL,0%
Cc1ccc2oc(/C=N/N=C(\N)c3cnccn3)nc2c1,,,,MIC,,>16 µg/mL
N/C(=N\N=C\c1ccccc1Cl)c1ccncc1,H37Rv,,,MIC,,8 µg/mL
N/C(=N\N=C/c1cn(Cc2ccccc2Cl)c2ccccc12)c1ccc2ccccc2n1,H37RV (INH RMP OFL-S),,,MIC,,>128 µg/mL
Clc1cccc(CSc2ncn[nH]2)c1,My 331/88,,,MIC,,1000 µM
C[C@H]1COc2c(N3CCN(C)CC3)c(F)cc3c(=O)c(C(=O)O)cn1c23,MDR-TB,,agar,MIC,,16 µg/mL
Cc1c2cnccc2c(C)c2c1c1ccccc1n2CCOC(=O)c1ccccc1,H37Rv,,resazurin,MIC,,3.13 µg/mL
NCC[C@H](O)C(=O)N[C@@H]1C[C@H](N)[C@@H](O[C@H]2O[C@H](CN)[C@@H](O)[C@H](O)[C@H]2O)[C@H](O)[C@H]1O[C@H]1O[C@H](CO)[C@@H](O)[C@H](N)[C@H]1O,MDR15,,broth dilution / resazurin,MIC,,4 µg/mL
CCCCCCCCc1ccc2c(c1)C(=O)c1nc3ccncc3c(=O)n1-2,H37Rv,,,MIC,,0.015 µg/mL
COC(=O)C1=C(C)NC(Nc2ccc([N+](=O)[O-])cc2O)=NC1c1ccc(Cl)cc1,H37Rv,,agar,MIC,,8 µg/mL
O=c1nc(N2CCN(CC3CCCCC3)CC2)sc2c([N+](=O)[O-])cc(C(F)(F)F)cc12,H37Rv,,resazurin,MIC90,,<0.016 µg/mL
c1ccc2c(c1)n1[se]n21,H37Rv,,,MIC,,457.5 µg/mL
CC(C)C(=O)c1cn(-c2cccc3ccccc23)nn1,H37Rv,,,inhibition,12.5 µg/mL,0%
COC(OC)c1ccc2c(c1)C(=O)c1nc3ccncc3c(=O)n1-2,H37Rv,,,MIC,,0.13 µg/mL
CCc1cc(C(=O)OC)c(=O)n2c1-c1[nH]c3ccccc3c1CC2,H37Rv,,resazurin,MIC bound,,>6.25 µg/mL
CN[C@@H]1[C@H](O[C@H]2[C@H](O[C@H]3[C@H](O)[C@@H](O)[C@H](N=C(N)N)[C@@H](O)[C@@H]3N=C(N)N)O[C@@H](C)[C@]2(O)C=O)O[C@@H](CO)[C@H](O)[C@H]1O,H37Rv,,,MIC,,0.3 µg/mL
NC(=S)c1ccc(CSc2ncn[nH]2)cc1,My 331/88,,,MIC,,250 µM
Cc1[nH]n(-c2ccccc2)c(=O)c1N=Nc1ccc(-c2n[nH]c(=S)n2C)cc1,H37Rv,,,inhibition,6.25 µg/mL,0%
COC(=O)C1=C(C)NC(=NCc2ccc(OC)cc2OC)NC1c1ccc(Cl)cc1,MDR-TB,,agar,MIC,,32 µg/mL
Cc1[nH]n(-c2ccc([N+](=O)[O-])cc2)c(=O)c1N=Nc1ccc(-c2n[nH]c(=S)o2)cc1,H37Rv,,,MIC,,>6.25 µg/mL
CCN(CC)CC(=O)Nc1c(C)cc(C(=O)NN)cc1C,H37Rv,,BACTEC,MIC bound,,>12.5 µg/mL
NNC(=O)c1ccncc1,H37Rv,,agar,MIC,,0.1 µg/mL
COC(=O)C1=C(C)NC(Nc2cccc(C#N)c2)=NC1c1ccc(Cl)cc1,XDR-TB,,agar,MIC,,>64 µg/mL
Cc1ccc(/C=N/N=C(\N)c2ccncc2)cc1,Isolate 1751 ofloxacin-resistant,,,MIC,,16 µg/mL
CCOC(=O)/C(N=Nc1ccc(-c2n[nH]c(=S)n2C)cc1)=C(\C)O,H37Rv,,,EC50,,>6.25 µg/mL
O=C1NN2CCN=C2c2ccccc21,H37Rv,,BACTEC,MIC bound,,>12.5 µg/mL
CC(=O)O[C@H]1C[C@]2(C)[C@@H](C(C)C)CC[C@H]2[C@]23C[C@H]2[C@@H](O)CC[C@]13C,H37Rv,,resazurin,MIC,,100 µg/mL
CCOC(=O)c1cn(NC(N)=O)nn1,H37Rv,,,inhibition,12.5 µg/mL,0%
N/C(=N\N=C\c1cc2ccccc2s1)c1ccccn1,,,,MIC,,>16 µg/mL
O=c1[nH]c2ccc(CC(=S)N3CCOCC3)cc2s1,H37Rv,,resazurin,MIC bound,,>6.25 µg/mL
N/C(=N\N=C/c1cn(Cc2ccc(Br)cc2)c2ccccc12)c1ccccn1,H37RV (INH RMP OFL-S),,,MIC,,64 µg/mL
COC(=O)C1=C(C)NC(Nc2ccc(Br)cc2)=NC1c1ccc(Cl)cc1,XDR-TB,,agar,MIC,,>64 µg/mL
O=C(c1cn(-c2ccccc2)nn1)c1ccc(Br)cc1Br,H37Rv,,,MIC,,>12.5 µg/mL
CC(C)[C@H]1CC[C@H]2[C@@H]3C=CC4(C)CC[C@@]3(CC[C@]12C(=O)O)CO4,CIBIN 99,,resazurin,MIC,,100 µg/mL
Nc1c(C(=O)Nc2ccc(NC(=O)c3ccc4c(c3N)C(=O)c3ccccc3C4=O)c3c2C(=O)c2ccccc2C3=O)ccc2c1C(=O)c1ccccc1C2=O,H37Rv,,BACTEC,inhibition,12.5 µg/mL,9%
CC(=O)O[C@H]1C[C@@]2(C)C(=C3CC=C(C)CC[C@@]31C)CC[C@@H]2C(C)C,CIBIN 99,,resazurin,MIC,,100 µg/mL
COc1cc(-c2ccc3c(c2)OCO3)nc2ccccc12,H37Rv,,,MIC,,16 µg/mL
N/C(=N\N=C\c1cc2ccccc2o1)c1ccccn1,,,,MIC,,>16 µg/mL
CCCCc1nc(Cl)c(/C=N/NC(N)=S)n1CCCN1CCN(c2ccc(Cl)cc2)CC1,H37Rv,,agar,MIC,,25 µg/mL
O=C1c2ccccc2-n2c1nc1ccc(F)cc1c2=O,H37Rv,,,MIC,,0.13 µg/mL
CCCCN(C)CCNc1cc(C)nc(Nc2nc3ccc(Cl)cc3[nH]2)n1,H37Rv,,BACTEC,MIC,,6.25 µg/mL
CCOC(=O)/C(N=Nc1ccc(C(=O)N/N=C/c2ccc([N+](=O)[O-])o2)cc1)=C(\C)O,H37Rv,,,EC50,,<12.5 µg/mL
COc1cc(C2CC(=O)c3ccccc3O2)ccc1O,H37Rv,,BACTEC,MIC,,8 µg/mL
C=C(C)/C=C/[C@]12C[C@H](C)[C@H]3CC[C@](C)(NC)[C@@H](CC[C@H]1C)[C@@H]32,H37Rv,,,inhibition,32 µg/mL,100%
CCCCc1ccc2c(c1)C(=O)c1nc3ccncc3c(=O)n1-2,H37Rv,,,MIC,,0.015 µg/mL
CC1=C(CO)C(=O)O[C@H]([C@@H](C)[C@H]2CC[C@H]3[C@@H]4C[C@H]5O[C@]56[C@@H](O)C(N5CC5)=CC(=O)C6(C)[C@H]4CC[C@]23C)C1,H37Rv,,BACTEC,MIC bound,,>12.5 µg/mL
O=C1c2ccccc2-n2c1nc1cnccc1c2=O,H37Rv,,,MIC,,1 µg/mL
N/C(=N\N=C/c1c[nH]c2ccccc12)c1ccc2ccccc2n1,H37RV (INH RMP OFL-S),,,MIC,,16 µg/mL
COc1c2c(c(Cc3c4c(c(OC)c5c3OCO5)OC(C)C4)c3c1OCO3)CC(C)O2,H37Rv,,BACTEC,MIC bound,,>12.5 µg/mL
O=C1c2ccccc2-n2c1nc1cc(F)ccc1c2=O,H37Rv,,,MIC,,0.06 µg/mL
COc1ccc(C(=O)Nc2ccc(C(=O)N/N=C/c3ccc(Cl)cc3)cc2)cc1,H37Rv,,,inhibition,6.25 µg/mL,3%
NC(=O)c1cnccn1,H37Rv,,agar,MIC,,50 µg/mL
COC1/C=C\C=C(/C)C(=O)Nc2cc3nc4cc(Br)ccc4oc-3c(c2=O)CC(C)CC(OC)C(O)C(C)/C=C(\C)C1OC(N)=O,H37Rv,,BACTEC,MIC bound,,≤12.5 µg/mL
N#Cc1ccc(N2CC3CCC2CN3Cc2ccc([N+](=O)[O-])o2)cc1,Clinical Isolate 16833,INH RFP resistant,resazurin,MIC90,,9.97 µg/mL
Fc1ccc(CSc2ncn[nH]2)cc1,My 331/88,,,MIC,,500 µM
O=C(c1cn(CCBr)nn1)c1cccs1,H37Rv,,,inhibition,12.5 µg/mL,94%
C[C@H]1COc2c(N3CCN(C)CC3)c(F)cc3c(=O)c(C(=O)O)cn1c23,H37Rv,,resazurin,MIC,,0.25 µg/mL
COc1ccc(Nc2nnc(-c3ccc(NC(=O)c4ccc(OC)cc4)cc3)o2)cc1,H37Rv,,,MIC,,>6.25 µg/mL
CC(C)(C)c1ccc(N2CCN(Cc3ccc([N+](=O)[O-])o3)CC2)cc1,H37Rv,,resazurin,MIC90,,0.016 µg/mL
N/C(=N\N=C\c1ccncc1)c1cnccn1,,,,MIC,,>16 µg/mL
CCOC(=O)N1C2CC=CCC1C1(c3ccccc3)OC2(c2ccccc2)c2ccccc21,H37Rv,,BACTEC,MIC bound,,>12.5 µg/mL
CC1(C)CC(=NO)C2[Se]ON=C2C1,H37Rv,,,MIC,,4.23 µg/mL
CC(C)[C@H]1CC[C@H]2[C@@H]3C=C[C@](C)(O)[C@H](O)C[C@]3(C)CC[C@]12C(=O)O,H37Rv,,resazurin,MIC,,100 µg/mL
Nc1ccc2nc3ccc(=O)cc-3n(-c3ccccc3)c2c1,H37Rv,,BACTEC,inhibition,12.5 µg/mL,96%
N/C(=N\N=C\c1ccc(Br)cc1)c1ccncc1,H37Rv,,,MIC,,8 µg/mL
O=[N+]([O-])c1ccc(CSc2ncn[nH]2)c([N+](=O)[O-])c1,My 331/88,,,MIC,,32 µM
O=C(c1cn(-c2ccccc2)nn1)c1cccc2ccccc12,H37Rv,,,MIC,,>12.5 µg/mL
CC(C(=O)NN)C1(O)CCCCC1,H37Rv,,BACTEC,MIC bound,,>12.5 µg/mL
CC(C)[C@H]1CC[C@@H]2[C@]1(C)CCC13CC[C@](C)(O1)[C@H](CO)[C@]23O,CIBIN 99,,resazurin,MIC,,50 µg/mL
CCOC(=O)/C=C1\CC2c3cc(OC)c(OC)cc3CCN2CC1CC,H37Rv,,BACTEC,MIC bound,,>12.5 µg/mL
Cc1ccc2oc(/C=N/N=C(\N)c3ccccn3)nc2c1,,,,MIC,,>16 µg/mL
Cc1ccc2c(c1)Sc1ccc(N=NN(C)C)cc1N2C,H37Rv,,BACTEC,MIC bound,,>12.5 µg/mL
N/C(=N\N=C\c1nc2cc(Cl)ccc2o1)c1cnccn1,,,,MIC,,>16 µg/mL

Repeating the final 12 entries:

structure	strain or isolate	changes	method	endpoint	tested at	result
CC1(C)CC(=NO)C2[Se]ON=C2C1	H37Rv			MIC		4.23 µg/mL
CC(C)[C@H]1CC[C@H]2[C@@H]3C=C[C@](C)(O)[C@H](O)C[C@]3(C)CC[C@]12C(=O)O	H37Rv		resazurin	MIC		100 µg/mL
Nc1ccc2nc3ccc(=O)cc-3n(-c3ccccc3)c2c1	H37Rv		BACTEC	inhibition	12.5 µg/mL	96%
N/C(=N\N=C\c1ccc(Br)cc1)c1ccncc1	H37Rv			MIC		8 µg/mL
O=[N+]([O-])c1ccc(CSc2ncn[nH]2)c([N+](=O)[O-])c1	My 331/88			MIC		32 µM
O=C(c1cn(-c2ccccc2)nn1)c1cccc2ccccc12	H37Rv			MIC		>12.5 µg/mL
CC(C(=O)NN)C1(O)CCCCC1	H37Rv		BACTEC	MIC bound		>12.5 µg/mL
CC(C)[C@H]1CC[C@@H]2[C@]1(C)CCC13CC[C@](C)(O1)[C@H](CO)[C@]23O	CIBIN 99		resazurin	MIC		50 µg/mL
CCOC(=O)/C=C1\CC2c3cc(OC)c(OC)cc3CCN2CC1CC	H37Rv		BACTEC	MIC bound		>12.5 µg/mL
Cc1ccc2oc(/C=N/N=C(\N)c3ccccn3)nc2c1				MIC		>16 µg/mL
Cc1ccc2c(c1)Sc1ccc(N=NN(C)C)cc1N2C	H37Rv		BACTEC	MIC bound		>12.5 µg/mL
N/C(=N\N=C\c1nc2cc(Cl)ccc2o1)c1cnccn1				MIC		>16 µg/mL

MIC bound: limit read from a one-dose screen. Rows are shuffled and stem from different studies. Percent inhibition refers to the dose given; in toxicity tests it is the harm to the cells. Blank or dashed fields: not listed here. MIC50, MIC90 and the like: level of inhibition, or share of isolates inhibited.